Laboratory results: patent publication US20190100761A1, “COMPOSITIONS AND METHODS FOR ENHANCED GENE EXPRESSION AND VIRAL REPLICATION” (priority 2016, published 2019)

How the values were obtained:
HIV-1 [1] = format: cell-based; details: for positive effect on p55 Gag expression / increase in HIV-1 p24 capsid expression: overexpression in 293T cells; for positive effect on p55 Gag expression: 24 hpi; for increase in HIV-1 p24 capsid expression: 48 hpi
IAV strain PR8 = format: cell-based, influenza A virus
HIV-1 [2] = format: cell-based; details: overexpression in 293T cells, 48 hpi
HIV-1 NL4-3 = format: cell-based

Substance | effect on viral gene expression (HIV-1 [1]) | positive effect on p55 Gag expression (HIV-1 [1]) | increase in HIV-1 p24 capsid expression (HIV-1 [1]) | expression of the viral NS1 and M2 proteins (IAV strain PR8) | increase in infectious IAV (plaque assay on MDCK cells) (IAV strain PR8) | enhancement of HIV-1 gRNA expression (HIV-1 [2]) | replication of HIV-1 (p24 ELISA) (HIV-1 NL4-3; CEM-SS Y2-OE subclone overexpressing YTHDF2 ~2-fold vs control CEM-SS) | HIV-1 Gag and Nef expression (HIV-1 NL4-3; CEM-SS Y2-OE subclone, Western at 72 hpi vs control CEM-SS)
YTHDF1: human cytoplasmic m^6A reader protein YTH-domain containing family 1, SEQ ID NO: 4, overexpressed in cells | more minor positive effect | – | – | – | – | – | – | –
YTHDF2: human cytoplasmic m^6A reader protein, SEQ ID NO: 5, overexpressed in cells | – | ~6 fold | ~4 fold | substantially higher level | ~10 fold | ~6 fold | significant enhancement | substantially higher level
YTHDF3: human cytoplasmic m^6A reader protein, SEQ ID NO: 6, overexpressed in cells | – | ~5 fold | ~4 fold | – | – | ~6 fold | – | –
